The compounds below were run on DENV-2 16681 strain (assay: DENV-2 antiviral assay (eGFP fluorescence, Vero cells)). Conditions: SI=CC50/EC50, DENV-2 antiviral assay.
Type: cell-based, Dengue virus
Experimental: The antiviral activity of all the compounds of the invention was tested against the DENV-2 16681 strain which was labeled with enhanced green fluorescent protein (eGPF; Table 1). The culture medium consists of minimal essential medium supplemented with 2% of heat-inactivated fetal calf serum, 0.04% gentamycin (50 mg/mL) and 2 mM of L-glutamine. Vero cells, obtained from ECACC, were suspended in culture medium and 25 μL was added to 384-well plates (2500 cells/well), which already contain the antiviral compounds. Typically, these plates contain a 5-fold serial dilution of 9 dilution steps of the test compound at 200 times the final concentration in 100% DMSO (200 nL). […] Finally, each plate contains wells which are assigned as virus controls (containing cells and virus in the absence of compound), cell controls (containing cells in the absence of virus and compound) and medium controls (containing medium in the absence of cells, virus and compounds). To the wells assigned as medium control, 25 μL of culture medium was added instead of Vero cells. Once the cells were added to the plates, the plates were incubated for 30 minutes at room temperature to allow the cells to distribute evenly within the wells. Next, the plates were incubated in a fully humidified incubator (37° C., 5% CO2) until the next day. Then, DENV-2 strain 16681, labeled with eGFP, was added at a multiplicity of infection (MOI) of 0.5. Therefore, 15 μL of virus suspension was added to all the wells containing test compound and to the wells assigned as virus control. In parallel, 15 μL of culture medium was added to the medium and cell controls. Next, the plates were incubated for 3 days in a fully humidified incubator (37° C., 5% CO2). At the day of the read out, the eGFP fluorescence was measured using an automated fluorescence microscope at 488 nm (blue laser). Using an in-house LIMS system, inhibition dose response curves for each compound were calculated and the half maximal effective concentration (EC50) was determined. Therefore, the percent inhibition (I) for every test concentration is calculated using the following formula: I=100*(ST−SCC)/(SVC−SCC); ST, SCC and SVC are the amount of eGFP signal in the test compound, cell control and virus control wells, respectively. The EC50 represents the concentration of a compound at which the virus replication is inhibited with 50%, as measured by a 50% reduction of the eGFP fluorescent intensity compared to the virus control. The EC50 is calculated using linear interpolation.

Compound | SI
COc1cc(NC(C(=O)c2c[nH]c3cc(F)ccc23)c2ccc(Cl)cc2OC)cc(S(C)(=O)=O)c1 (racemic) [Compound 1, 2-(4-chloro-2-methoxyphenyl)-1-(6-fluoro-1H-indol-3-yl)-2-((3-methoxy-5-(methylsulfonyl)phenyl)amino)ethanone] | 11500
COc1cc(NC(C(=O)c2c[nH]c3c(C)c(F)ccc23)c2ccc(Cl)cc2OC)cc(S(C)(=O)=O)c1 (racemic) [Compound 2, 2-(4-chloro-2-methoxyphenyl)-1-(6-fluoro-7-methyl-1H-indol-3-yl)-2-((3-methoxy-5-(methylsulfonyl)phenyl)amino)ethanone] | 8410
COc1cc(NC(C(=O)c2c[nH]c3cc(OC)ccc23)c2ccc(Cl)cc2OC)cc(S(C)(=O)=O)c1 (racemic) [Compound 3, 2-(4-chloro-2-methoxyphenyl)-1-(6-methoxy-1H-indol-3-yl)-2-((3-methoxy-5-(methylsulfonyl)phenyl)amino)ethanone] | 37700
COc1cc(NC(C(=O)c2c[nH]c3cc(OC)c(C)cc23)c2ccc(Cl)cc2OC)cc(S(C)(=O)=O)c1 (racemic) [Compound 4, 2-(4-chloro-2-methoxyphenyl)-2-((3-methoxy-5-(methyl-sulfonyl)phenyl)amino)-1-(6-methoxy-5-methyl-1H-indol-3-yl)ethanone] | 14900
COc1cc(NC(C(=O)c2c[nH]c3cc(OC)c(F)cc23)c2ccc(Cl)cc2OC)cc(S(C)(=O)=O)c1 (racemic) [Compound 5, 2-(4-chloro-2-methoxyphenyl)-1-(5-fluoro-6-methoxy-1H-indol-3-yl)-2-((3-methoxy-5-(methylsulfonyl)phenyl)amino)ethanone] | 8780
COc1cc(NC(C(=O)c2c[nH]c3cc(F)c(C)cc23)c2ccc(Cl)cc2OC)cc(S(C)(=O)=O)c1 (racemic) [Compound 7, 2-(4-chloro-2-methoxyphenyl)-1-(6-fluoro-5-methyl-1H-indol-3-yl)-2-((3-methoxy-5-(methylsulfonyl)phenyl)amino)ethanone] | >7040
COc1cc(NC(C(=O)c2c[nH]c3ccc(C(F)(F)F)cc23)c2ccc(Cl)cc2OC)cc(S(C)(=O)=O)c1 (racemic) [Compound 8, 2-(4-chloro-2-methoxyphenyl)-2-((3-methoxy-5-(methyl-sulfonyl)phenyl)amino)-1-(5-(trifluoromethyl)-1H-indol-3-yl)ethanone] | 30400
COc1cc(NC(C(=O)c2c[nH]c3ccc(OC(F)(F)F)cc23)c2ccc(Cl)cc2OC)cc(S(C)(=O)=O)c1 (racemic) [Compound 9, 2-(4-chloro-2-methoxyphenyl)-2-((3-methoxy-5-(methyl-sulfonyl)phenyl)amino)-1-(5-(trifluoromethoxy)-1H-indol-3-yl)ethanone] | >39100
COc1cc(NC(C(=O)c2c[nH]c3cc(F)ccc23)c2ccc(Cl)cc2OC)cc(S(C)(=O)=O)c1 (single isomer, unassigned) [Compound 1B, 2-(4-chloro-2-methoxyphenyl)-1-(6-fluoro-1H-indol-3-yl)-2-((3-methoxy-5-(methylsulfonyl)phenyl)amino)ethanone] | 530
COc1cc(NC(C(=O)c2c[nH]c3c(C)c(F)ccc23)c2ccc(Cl)cc2OC)cc(S(C)(=O)=O)c1 (single isomer, unassigned) [Compound 2B, 2-(4-chloro-2-methoxyphenyl)-1-(6-fluoro-7-methyl-1H-indol-3-yl)-2-((3-methoxy-5-(methylsulfonyl)phenyl)amino)ethanone] | 285
COc1cc(NC(C(=O)c2c[nH]c3cc(OC)ccc23)c2ccc(Cl)cc2OC)cc(S(C)(=O)=O)c1 (single isomer, unassigned) [Compound 3B, 2-(4-chloro-2-methoxyphenyl)-1-(6-methoxy-1H-indol-3-yl)-2-((3-methoxy-5-(methylsulfonyl)phenyl)amino)ethanone] | 2480
